# Test results as given in the supplement of paper PMC8253809.
# The entries are a selection whose mix differs from that of the whole data set.
# Legend:
# Assay in all cases: growth inhibition (% activity, log2 RLU normalised to DMSO / staurosporine); higher = more growth inhibition
# Conditions in all cases: 33 µM
# DIPGX29 = system: DIPGX29 (H3.3 K27M diffuse intrinsic pontine glioma line)
# Procedure, shortened: (§1)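 pHGG cell lines and H9-derived neural stem cells were grown on Geltrex-coated 384-well plates. Approved drugs were added by pin tool at a single final concentration of about 33 μM, in triplicate, for 7 days at 37 °C, 5% CO2. CellTiter-Glo luminescence was log2-transformed and normalised per plate to % activity between solvent and positive control wells. The growth-inhibition value is the median over replicates.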
# DIPGX37 = system: DIPGX37 (H3.3 K27M diffuse intrinsic pontine glioma line)
# Procedure, shortened: as §1
# DIPGX7 = system: DIPGX7 (H3.3 K27M diffuse intrinsic pontine glioma line)
# Procedure, shortened: as §1
# DIPGX9 = system: DIPGX9 (diffuse intrinsic pontine glioma line)
# Procedure, shortened: as §1
# HGGX39 = system: HGGX39 (paediatric high-grade glioma line)
# Procedure, shortened: as §1
# HGGX6 = system: HGGX6 (H3.3 G34R paediatric high-grade glioma line)
# Procedure, shortened: as §1
# SUDIPGIV = system: SUDIPGIV (diffuse intrinsic pontine glioma line)
# Procedure, shortened: as §1
# SUDIPGVI = system: SUDIPGVI (diffuse intrinsic pontine glioma line)
# Procedure, shortened: as §1
# SUDIPGXIII = system: SUDIPGXIII (diffuse intrinsic pontine glioma line)
# Procedure, shortened: as §1
structure (smiles),measurement,setting,value
O=P([O-])([O-])F.[Na+].[Na+],growth inhibition,DIPGX29,0.913%
same,growth inhibition,DIPGX37,0.346%
same,growth inhibition,DIPGX7,0.705%
same,growth inhibition,DIPGX9,-0.391%
same,growth inhibition,HGGX39,2.13%
same,growth inhibition,HGGX6,-1.24%
same,growth inhibition,SUDIPGIV,2.48%
same,growth inhibition,SUDIPGVI,-3.7%
same,growth inhibition,SUDIPGXIII,-2.89%
